From paper PMC9270183 (The Journal of Experimental Medicine, 2022)

Target: T1, 417N/484K/501Y RBD mutant (SARS-CoV-2, Wuhan-Hu-1 RBD backbone …, 417N | 484K | 501Y)
T1 construct: also called RBD KEN
Assay: BLI
Conditions: both partners purified

B1: V029 (antibody, V domains shown)
VH: QVQLVESGGGVVQPGRSLRLSCAASGFTFNSYGMHWVRQAPGKGLEWVAVISYDGTNKYYADSVKGRFTISRDNSKNTLYLQMNSLRAEDTAVYYCAKDSEDCSSTTCYQDYWGQGTLVTVSS
VL: [about 100 residues cut from this listing]FGPGTKVDIK
notes: IgG; donor BRA14; source: recombinant monoclonal IgG, produced and purified as previously described
  Kd: 19.1 nM
